Tested on: chlorogenate esterase
Experiment: Hydrolysis of chicoric acid with chlorogenate esterase
Assay type: biochemical, Aspergillus japonicus
Settings: 37° C.

SMILES	Concentration in % relative to untreated reference at t = 0 (pH 7.0, time 0 min)	Concentration in % relative to untreated reference at t = 0 (pH 7.0, time 15 min)	Concentration in % relative to untreated reference at t = 0 (pH 7.0, time 30 min)	Concentration in % relative to untreated reference at t = 0 (pH 7.0, time 60 min)	Concentration in % relative to untreated reference at t = 0 (pH 7.0, time 120 min)	Concentration in % relative to untreated reference at t = 0 (pH 7.0, time 240 min)
O=C(O)/C=C/c1ccc(O)c(O)c1 [Caffeic Acid]	2%	9%	10%	13%	19%	26%
O=C(/C=C/c1ccc(O)c(O)c1)O[C@@H](C(=O)O)[C@@H](O)C(=O)O [Caftaric Acid]	0%	6%	7%	10%	16%	24%
O=C(/C=C/c1ccc(O)c(O)c1)O[C@@H](C(=O)O)[C@@H](OC(=O)/C=C/c1ccc(O)c(O)c1)C(=O)O [chicoric acid]	98%	85%	83%	77%	65%	50%

From US20110280848A1, “COMPOSITION COMPRISING CHICORIC ACID AND/OR DERIVATIVES THEREOF” (NESTEC S.A., priority 2009, published 2011)
